Data: patent US20240287123A1 (Victoria Link Limited, priority 2021, published 2024)

Legend:
[1] = tested on: EBV (Akata/Akata); experiment: EBV assay: viral DNA quantification in induced Akata cells; format: cell-based, Epstein-Barr virus; conditions: for Normalised value = (Compound EC50/CDV control EC50): EBV; for EBV SI50: Akata/Akata, Table 1
Protocol: (§1) Akata cells were obtained from Louisiana State University, Baton Rouge, LA. The HCMV strain AD169 was obtained from the American Type Culture Collection (ATCC, Manassas, VA). Akata cells latently infected with EBV were obtained from Louisiana State University, Baton Rouge, LA.
(§2) Each experiment that evaluates the antiviral activity of compounds includes both positive and negative control compounds to ensure the performance of each assay. Concurrent assessment of cytotoxicity was also performed for each study in the same cell line and with the same compound exposure.
Assays for EBV were performed by reported methods.^37 Akata cells were induced to undergo a lytic infection with 50 μg/ml of a goat anti-human IgG antibody. Experimental compounds were diluted within plates. The cells were added and incubated for 72 h. Similar plates were initiated without virus induction/addition and used for measuring cytotoxicity by the addition of CTG. For all assays, the replication of the virus was assessed by the quantification of viral DNA. For EBV, primers 5′-[…]-3′ and 5′-CAG TTC CTC GCCTTAGGTTG-3 amplified a fragment corresponding to coordinates 96802-97234 in EBV genome (AJ507799). Compound concentrations sufficient to reduce genome copy number by 50% were calculated from experimental data as well as compound cytotoxicity.

[2] = tested on: HCMV (AD169 strain in HFF cells); experiment: CPE (cytopathic effect) assay for HCMV; format: cell-based, Human Cytomegalovirus; conditions: Table 1
Protocol: Human foreskin fibroblast (HFF) cells prepared from human foreskin tissue were obtained from the University of Alabama at Birmingham tissue procurement facility with approval from its IRB. The tissue was incubated at 4° C. for 4 h in Clinical Medium consisting of minimum essential media (MEM) with Earl's salts supplemented with 10% fetal bovine serum (FBS) (Hyclone, Inc. Logan UT), L-glutamine, fungizone, and vancomycin. Tissue was then placed in phosphate buffered saline (PBS), minced, rinsed to remove the red blood cells, and resuspended in trypsin/EDTA solution. The tissue suspension was incubated at 37° C. and gently agitated to disperse the cells, which were collected by centrifugation. Cells were resuspended in 4 ml Clinical Medium and placed in a 25 cm^2 flask and incubated at 37° C. in a humidified CO2 incubator for 24 h. The media was then replaced with fresh Clinical Medium and the cell growth was monitored daily until a confluent monolayer had formed. The HFF cells were then expanded through serial passages in standard growth medium of MEM with Earl's salts supplemented with 10% FBS, L-glutamine, penicillin, and gentamycin.
as §1, §2
Assays were performed in monolayers as described.37 Cells were seeded in 384 well plates and incubated for 24 h to allow the formation of confluent monolayers. […] After incubation, cytopathology was determined by the addition of CellTiter-Glo (CTG) reagent. […] Toxicity was measured using CTG as above.

[3] = tested on: HHV-6B (Z29; MOLT-3); experiment: HHV-6B antiviral assay (Z29; MOLT-3); format: cell-based, human betaherpesvirus 6B

Row | SMILES | Normalised value = (Compound EC50/CDV control EC50) ([1]; Secondary) | Normalised value = (Compound EC50/CDV control EC50) ([1]; Primary) | also measured
1 | CC(C)(C)C(=O)SCCOP(=O)(OCCSC(=O)C(C)(C)C)OCC1=C[C@@H](O)[C@H](n2ccc(NO)nc2=O)O1 | 2.78 | – | –
2 | Nc1ccn(C[C@@H](CO)OCP(=O)(O)O)c(=O)n1 [Cidofovir, cidofovir, reference compound] | – | – | EBV SI50 [1]: >12 µM
3 | CC(C)C(=O)OCC1=C[C@@H](O)[C@H](n2ccc(N)nc2=O)O1 [Compound 8, 3′-Deoxy-3′,4′-didehydro-5′-O-isobutyroyl-cytidine] | – | 0.92 | HCMV SI50 [2]: >2381 µM; EBV SI50 [1]: >7 µM
4 | CC(C)C(=O)OCC1=C[C@@H](O)[C@H](n2ccc(NO)nc2=O)O1 [Compound 10, 3′-Deoxy-3′,4′-didehydro-4-N-hydroxy-5′-O-isobutyroyl-cytidine] | – | 3.63 | HCMV SI50 [2]: >1786 µM; EBV SI50 [1]: >2 µM
5 | CC(C)OC(=O)[C@H](C)N[P@](=O)(OCC1=C[C@@H](O)[C@H](n2ccc(N)nc2=O)O1)Oc1ccccc1 [Compound 21, 3′-Deoxy-3′,4′-didehydrocytidine-5′-O-[phenyl(isopropoxy-L-alaninyl) ]-Sp-phosphoramidate] | – | 2.88 | EBV SI50 [1]: >2 µM
6 | CC(C)C(=O)OCC1=CC[C@H](n2ccc(N)nc2=O)O1 [Compound 39, 3′,4′-Didehydro-2′,3′-dideoxy-5′-O-isobutyroylcytidine] | – | – | Normalised value = (Compound EC50/CDV control EC50) ([3]; Primary): 1.62; Normalised value = (Compound EC50/CDV control EC50) ([3]; Secondary): 3.91
7 | Nc1nc(O)c2ncn(COC(CO)CO)c2n1 [Ganciclovir, ganciclovir, reference compound] | – | – | HCMV SI50 [2]: >272 µM
8 | Nc1ccn([C@@H]2OC(CO)=C[C@H]2O)c(=O)n1 [ddhC, 3′-Deoxy-3′,4′-didehydro-cytidine, reference compound] | – | 4.7 | EBV SI50 [1]: >1 µM
9 | CC(C)C(=O)OCC1=C[C@@H](O)[C@H](n2ccc(N)nc2=O)O1 [drawing 64, 3′-Deoxy-3′,4′-didehydro-5′-O-isobutyroyl-cytidine] | 2.14 | – | –
10 | CC(=O)OCC1=C[C@@H](O)[C@H](n2ccc(N)nc2=O)O1 [drawing 67] | – | 2.71 | –
11 | CC(=O)OCC1=C[C@@H](O)[C@H](n2ccc(N)nc2=O)O1 [drawing 68] | 3.08 | – | –
12 | CC(C)(C)C(=O)OCC1=C[C@@H](O)[C@H](n2ccc(N)nc2=O)O1 [drawing 69] | 2.67 | – | –
13 | CC(C)[C@H](N)C(=O)OCC1=C[C@@H](O)[C@H](n2ccc(N)nc2=O)O1 [drawing 70] | 3.1 | – | –
14 | Nc1ccn([C@H]2CC=C(CO)O2)c(=O)n1 [drawing 72, 3′,4′-Didehydro-2′,3′-dideoxycytidine] | – | 11.49 | –
15 | CC(C)C(=O)OCC1=CC[C@H](n2ccc(N)nc2=O)O1 [drawing 73, 3′,4′-Didehydro-2′,3′-dideoxy-5′-O-isobutyroylcytidine] | – | 2.44 | –
16 | CC(C)C(=O)OCC1=CC[C@H](n2ccc(N)nc2=O)O1 [drawing 74, 3′,4′-Didehydro-2′,3′-dideoxy-5′-O-isobutyroylcytidine] | 3.67 | – | –
17 | CCCCCC(=O)OCC1=C[C@@H](O)[C@H](n2ccc(N)nc2=O)O1 [drawing 75] | – | 0 | –
18 | CC(C)(C)C(=O)OCOP(=O)(OCOC(=O)C(C)(C)C)OCC1=C[C@@H](O)[C@H](n2ccc(N)nc2=O)O1 [drawing 76] | – | 0 | –
19 | CCC(CC)COC(=O)[C@H](C)N[P@](=O)(OCC1=C[C@@H](O)[C@H](n2ccc(N)nc2=O)O1)Oc1ccccc1 [drawing 77] | – | 0 | –
